A mixed list of measured activities; the numbers were collected in NIAID ChemDB.

All rows: cytotoxicity tests; cells: L929; read-out: CC50

Neighbouring rows are from separate reports.

structure | read by | result
N#Cc1c(N2CCOCC2)nsc1-c1ccccc1 | - | 1 µg/mL
Cc1nc(Cl)c([N+](=O)[O-])c(N2CC[N+](C)(C)CC2)n1 | - | >483.6 µg/mL
O=C(CC1NCCC[C@@H]1O)Cn1cnc2c(c1=O)CCCC2 | MTT | 73.8 µg/mL
Nc1cc(=O)n(CCOCP(=O)(O)O)c(N)n1 | - | <10 µM
ClCN1CC[N+]2(CC1)CC[N+]1(CCN(CCl)CC1)CC2 | - | 437.3 µg/mL
N#CCSc1nsc(-c2ccccc2)c1C#N | - | 10 µg/mL
Nc1nc(OCCOCP(=O)(O)O)cc(=O)n1CCOCP(=O)(O)O | - | <10 µM
O=[N+]([O-])c1c(Cl)ncnc1N1CC[N+]2(CC1)CC[N+]1(CCN(c3ncnc(Cl)c3[N+](=O)[O-])CC1)CC2 | - | 67.2 µg/mL
CN(C)c1nsc(-c2ccccc2)c1C#N | - | 15 µg/mL
C[C@@H](COc1cc(N)nc(N)n1)OCP(=O)(O)O | - | <10 µM
O=C(CC1NCCC[C@@H]1O)Cn1cnc2c(c1=O)CCCCC2 | MTT | 58.4 µg/mL
O=[N+]([O-])c1c(Cl)ncnc1NN1CC[N+]2(CC1)CC[N+]1(CCN(Nc3ncnc(Cl)c3[N+](=O)[O-])CC1)CC2 | - | >311.4 µg/mL
Cc1cc(=O)n(CCOCP(=O)(O)O)c(N)n1 | - | <10 µM
N#Cc1c(SCCCCBr)nsc1-c1ccccc1 | - | 25 µg/mL
O=C(C[C@H]1NCCC[C@@H]1O)Cn1cnc2c(c1=O)CCC2 | MTT | >100 µg/mL
C[N+]1(C)CCN(c2cccc(N3CC[N+](C)(C)CC3)c2[N+](=O)[O-])CC1 | - | >330.4 µg/mL
C=C1CCCC2[C@@H](CCC3(C)CCC([C@@H](C)C(=O)O)OO3)[C@H](C)CC[C@@]12C | - | <0.392 µM
O=C(CC1NCCC[C@@H]1O)Cn1cnc(-c2ccccc2)cc1=O | MTT | 29.4 µg/mL
Nc1cc(=O)n(CCOCP(=O)(O)O)cn1 | - | <10 µM
CSc1nc(Cl)c([N+](=O)[O-])c(N2CC[N+]3(CC2)CC[N+]2(CCN(c4nc(SC)nc(Cl)c4[N+](=O)[O-])CC2)CC3)n1 | - | >263.7 µg/mL
COC(=O)c1c(SC)nsc1-c1ccccc1 | - | 100 µg/mL
O=[N+]([O-])c1c(N2CCCC2)ncnc1N1CC[N+]2(CC1)CC[N+]1(CCN(c3ncnc(N4CCCC4)c3[N+](=O)[O-])CC1)CC2 | - | >293.4 µg/mL
N#Cc1c(SCCCBr)nsc1-c1ccccc1 | - | 25 µg/mL

2 of the rows above, restated:

structure	read by	result
Nc1cc(=O)n(CCOCP(=O)(O)O)cn1	-	<10 µM
COC(=O)c1c(SC)nsc1-c1ccccc1	-	100 µg/mL

Blank or dashed fields: not listed here. CCn is the concentration with n% toxicity to the cells.